Anti-infective test results gathered from many reports (values: NIAID ChemDB through PubChem).

All rows: tests in culture

Lines come from different laboratories, so protocols vary.

SMILES | species | method | tested at | strain | read-out | value
Cc1ccc(-n2cc(C(C)(C)O)nn2)cc1C | Candida tropicalis | broth dilution | 2048 µg/mL | URM 916 | inhibition | 0%
C=CCc1ccc(O)c(OC)c1 | Candida tropicalis | turbidity | - | 2029 | MIC90 | 490 µg/mL
CC(=O)OC[C@H]1O[C@@H](O[C@@H]2[C@@H](N=[N+]=[N-])[C@H](O)[C@H](O)[C@H]3OC(C)(C)O[C@H]32)[C@H](OC(C)=O)[C@@H](OC(C)=O)[C@H]1OC(C)=O | Candida tropicalis | broth dilution / turbidity | 15.6 µg/mL | C 131 | inhibition | 3.47%
CC(C)(O)c1cn(-c2ccc([N+](=O)[O-])cc2)nn1 | Candida albicans | broth dilution | 2048 µg/mL | URM 4126 | inhibition | 0%
CC1C(=O)N(CCCc2ccccc2)C(=O)C1C | Candida lusitaniae | broth dilution / turbidity | - | CCC 134-2000 | MIC | 250 µg/mL
Cc1ccc(C(O)c2cccc(C(O)CCn3ccnc3)c2)cc1 | Candida guilliermondii | broth dilution | - | RTCC 1377 | MIC | >64 µg/mL
C[C@@H]1CC(=O)N(c2ccc(Br)cc2)C1=O | Candida lusitaniae | broth dilution / turbidity | - | CCC 134-2000 | MIC | 62.5 µg/mL
Nc1ncccc1-c1cc(Cc2ccc(COc3ccccn3)cc2)no1 | Candida spp. | broth dilution | - | Fluconazole-resistant | MIC90 | 0.03 µg/mL
C[C@@H]1C(=O)N(CCCc2ccccc2)C(=O)[C@@H]1C | Candida lusitaniae | broth dilution / turbidity | - | CCC 134-2000 | MIC | 62.5 µg/mL
O=C(CCn1ccnc1)c1ccc(-c2ccccc2)cc1 | Candida kefyr | broth dilution | - | RTCC 1019 | MIC | 2 µg/mL
CC(C)(O)c1cn(-c2cccc3ccccc23)nn1 | Candida parapsilosis | broth dilution | 2048 µg/mL | URM 4818 | inhibition | 0%
O=C(CCn1ccnc1)c1cccc(O)c1 | Candida guilliermondii | broth dilution | - | RTCC1248 | MIC | >64 µg/mL
CCC(C)n1ncn(-c2ccc(N3CCN(c4ccc(OC[C@H]5CO[C@](Cn6cncn6)(c6ccc(Cl)cc6Cl)O5)cc4)CC3)cc2)c1=O | Candida spp. | broth dilution | - | Fluconazole-resistant | MIC90 | >4 µg/mL
C[C@H]1[C@H](O)[C@@H](C)/C=C/C=C/C=C/C=C/C=C/C=C/C=C/[C@H](O[C@@H]2O[C@H](C)[C@@H](O)[C@H](N)[C@@H]2O)C[C@@H]2O[C@](O)(C[C@@H](O)C[C@@H](O)CC[C@H](O)[C@@H](O)C[C@@H](O)CC(=O)O[C@H]1C)C[C@H](O)[C@H]2C(=O)O | Candida lusitaniae | broth dilution / turbidity | - | CCC 134-2000 | MIC | 0.98 µg/mL
CC(C)(O)c1cn(-c2ccc3ccccc3c2)nn1 | Candida parapsilosis | broth dilution | 2048 µg/mL | URM 4818 | inhibition | 0%
O=C(CCn1ccnc1)c1ccc(Br)cc1 | Candida guilliermondii | broth dilution | - | RTCC 1377 | MIC | 64 µg/mL

Again, the opening 2 rows:

SMILES | species | method | tested at | strain | read-out | value
Cc1ccc(-n2cc(C(C)(C)O)nn2)cc1C | Candida tropicalis | broth dilution | 2048 µg/mL | URM 916 | inhibition | 0%
C=CCc1ccc(O)c(OC)c1 | Candida tropicalis | turbidity | - | 2029 | MIC90 | 490 µg/mL

Inhibition is in % at the dose shown (toxicity tests: loss of growth or viability). MIC50, MIC90 and the like: level of inhibition, or share of isolates inhibited. Blank or dashed fields: not listed here.